Measured values from several laboratories, pooled; numbers as filed in NIAID ChemDB.

Common to all: tests on isolated targets

Lines come from different laboratories, so protocols vary. ICn: concentration for n% inhibition. Inhibition is in % at the dose shown (toxicity tests: loss of growth or viability). Blank or dashed fields: not listed here.

SMILES,protein,dose,changes,method,endpoint,value
OC[C@H]1O[C@@H](n2cnc3c(Cl)c(Cl)c(Cl)cc32)[C@H](O)[C@@H]1O,Protein kinase A,,,,IC50,>30 µM
COc1ccc(C[C@H]2NC(=O)CNC(=O)[C@H](Cc3ccc4ccccc4c3)NC(=O)[C@H](CCCN=C(N)N)NC(=O)[C@H](CCCN=C(N)N)NC2=O)cc1,CXCR4,,,radiometric,IC50,0.51 µM
NC(N)=NCCNS(=O)(=O)c1cccc2cnccc12,Protein kinase A,,,,IC50,2 µM
CN(CCCc1ccccc1)CC[C@H](CN(C)S(=O)(=O)c1ccccc1)c1cccc(Cl)c1,CCR5,,,radioligand binding / binding,IC50,>10 µM
C[C@@H]1NC(=O)[C@H](CCCN=C(N)N)NC(=O)[C@H](CCCN=C(N)N)NC(=O)[C@@H](Cc2ccc(O)cc2)NC(=O)CNC1=O,CXCR4,,,radiometric,IC50,>1 µM
OC[C@H]1O[C@@H](n2cnc3cc(Cl)c(Cl)cc32)[C@H](O)[C@@H]1O,Protein kinase A,,,,IC50,>30 µM
CN(C[C@@H](CCN1CCC2(CC1)CC(=O)c1ccccc1O2)c1cccc(Cl)c1)S(=O)(=O)c1ccccc1,CCR5,,,radioligand binding / binding,IC50,>1 µM
Cc1cc(SC2=C(O)C[C@@](CCc3ccc(O)cc3)(C(C)C)OC2=O)c(C(C)(C)C)cc1CO,Cytochrome P450 2D6,100 µM,,,inhibition,33%
NC(N)=NCCC[C@@H]1NC(=O)[C@@H](Cc2ccc(O)cc2)NC(=O)CNC(=O)[C@@H]2Cc3c([nH]c4ccccc34)CN2C(=O)[C@H](CCCN=C(N)N)NC1=O,CXCR4,,,radiometric,IC50,>1 µM
O=C(c1ccccc1)N1C[C@H](CN2CCC(c3ccccc3)CC2)[C@@H](c2ccccc2)C1,CCR5,,CCR5-Y251A,radiometric,IC50,0.11 µM
Cn1c2ccccc2c2c3c(c4c5ccccc5n(CC(F)F)c4c21)CNC3=O,Myosin light-chain kinase,,,,IC50,0.44 µM
CCCN(C(=O)Nc1ccccc1)C1CCN(CCC(CN(C)S(=O)(=O)c2ccccc2)c2ccccc2)CC1,CCR5,,,radioligand binding / binding,IC50,0.003 µM
Brc1c(Br)c(Br)c2[nH]c(I)nc2c1Br,Protein kinase C,,,,IC50,>30 µM
CCN(C(=O)OCc1ccccc1)C1CCN(CC[C@](C)(CN(C)S(=O)(=O)c2ccccc2)c2ccccc2)CC1,CCR5,,CCR5-Y251A,radiometric,IC50,0.11 µM
O=C1NCc2c1c1c3ccccc3[nH]c1c1[nH]c3ccccc3c21,cAMP-dependent protein kinase,,,,IC50,36 µM
O=S(=O)(c1cccc2cnccc12)N1CCNCC1,Protein kinase C,,,,IC50,0.5 µM
CCCN(C(=O)NCc1ccccc1)C1CCN(CCC(CN(C)S(=O)(=O)c2ccccc2)c2ccccc2)CC1,CCR5,,,radioligand binding / binding,IC50,0.002 µM
C=CCN(C(=O)OCc1ccc([N+](=O)[O-])cc1)C1CCN(CC[C@](C)(CN(C)S(=O)(=O)c2ccccc2)c2ccccc2)CC1,CCR5,,CCR5-W86A,radiometric,IC50,0.13 µM
NC(N)=NCCC[C@@H]1NC(=O)[C@@H](Cc2ccc(O)cc2)NC(=O)CNC(=O)[C@H](Cc2ccc3ccccc3c2)NC(=O)[C@@H]2C[C@@H](N=C(N)N)CN2C1=O,CXCR4,,,radiometric,IC50,>1 µM
CN(C[C@@H](CCN1CCC2(CC1)Cc1ccccc1C2=O)c1cccc(Cl)c1)S(=O)(=O)c1ccccc1,CCR5,1 µM,,radioligand binding / binding,inhibition,30%
Cn1c2ccccc2c2c3c(c4c5ccccc5n(CCC#N)c4c21)CNC3=O,Myosin light-chain kinase,,,,IC50,5.8 µM
NC(N)=NCCCC[C@@H]1NC(=O)[C@H](CCCN=C(N)N)NC(=O)[C@@H](Cc2ccc(O)cc2)NC(=O)CNC(=O)[C@H](Cc2ccc3ccccc3c2)NC1=O,CXCR4,,,radiometric,IC50,0.033 µM
CN(CCCCc1ccccc1)CC[C@H](CN(C)S(=O)(=O)c1ccccc1)c1cccc(Cl)c1,CCR5,,,radioligand binding / binding,IC50,>10 µM

A second listing of 2 rows from above:

SMILES,protein,dose,changes,method,endpoint,value
O=C(c1ccccc1)N1C[C@H](CN2CCC(c3ccccc3)CC2)[C@@H](c2ccccc2)C1,CCR5,,CCR5-Y251A,radiometric,IC50,0.11 µM
O=S(=O)(c1cccc2cnccc12)N1CCNCC1,Protein kinase C,,,,IC50,0.5 µM